# Source: patent US10112926B2 (priority 2014, dated 2018)
# The chains behind the UniProt entries cited, without tags or fusion partners.
# UniProt O00329, whole entry: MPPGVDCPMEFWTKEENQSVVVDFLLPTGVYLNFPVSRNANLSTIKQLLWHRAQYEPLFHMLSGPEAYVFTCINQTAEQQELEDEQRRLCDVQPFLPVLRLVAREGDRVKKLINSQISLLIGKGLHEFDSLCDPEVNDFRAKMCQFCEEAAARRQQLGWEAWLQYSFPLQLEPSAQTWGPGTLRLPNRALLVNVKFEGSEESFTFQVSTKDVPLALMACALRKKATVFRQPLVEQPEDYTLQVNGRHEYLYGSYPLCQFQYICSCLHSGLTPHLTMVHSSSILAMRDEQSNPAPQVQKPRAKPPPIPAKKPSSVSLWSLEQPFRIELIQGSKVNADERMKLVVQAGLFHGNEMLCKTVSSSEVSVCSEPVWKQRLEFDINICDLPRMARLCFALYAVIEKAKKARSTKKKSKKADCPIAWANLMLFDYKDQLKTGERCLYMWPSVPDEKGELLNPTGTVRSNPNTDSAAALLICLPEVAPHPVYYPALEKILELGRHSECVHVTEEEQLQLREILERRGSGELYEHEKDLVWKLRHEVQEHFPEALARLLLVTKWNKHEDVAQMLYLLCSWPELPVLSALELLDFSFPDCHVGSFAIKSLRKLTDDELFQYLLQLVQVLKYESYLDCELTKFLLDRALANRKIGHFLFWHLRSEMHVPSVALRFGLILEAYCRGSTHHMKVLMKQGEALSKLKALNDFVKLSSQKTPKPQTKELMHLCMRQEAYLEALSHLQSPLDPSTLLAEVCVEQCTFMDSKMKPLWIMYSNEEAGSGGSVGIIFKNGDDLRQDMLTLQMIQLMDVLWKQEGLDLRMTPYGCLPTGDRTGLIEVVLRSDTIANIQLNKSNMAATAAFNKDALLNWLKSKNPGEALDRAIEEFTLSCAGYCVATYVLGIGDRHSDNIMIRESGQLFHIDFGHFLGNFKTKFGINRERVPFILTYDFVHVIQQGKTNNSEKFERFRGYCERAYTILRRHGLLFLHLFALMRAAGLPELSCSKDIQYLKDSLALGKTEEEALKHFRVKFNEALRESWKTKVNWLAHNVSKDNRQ
# Target: PI 3-kinase delta (Rat-1 pBABEpuro Myr-HA-hp110 delta cells) (Homo sapiens (Human), UniProt O00329)
# Experiment: cell-based
# Conditions: Assay J PI3Kδ
row,Structure (SMILES),IC50 [nM]
1,"Cc1ccc(S(=O)(=O)N2CCOCC2)cc1-c1cnc(N)c(C(=O)c2cccnc2)c1 [(i), reference compound]",1100
2,"Cc1ccc(S(=O)(=O)N2CCOCC2)cc1-c1cnc(N)c(C(=O)c2cccnc2)n1 [(ix), reference compound]",1260
3,"COCCNS(=O)(=O)c1cccc(-c2cnc(N)c(C(=O)c3cccnc3)n2)c1 [(iv), reference compound]",1360
4,"COCCNS(=O)(=O)c1cc(-c2cnc(N)c(C(=O)c3cccnc3)n2)ccc1Cl [(vi), reference compound]",170
5,"Nc1ncc(-c2ccc(Cl)c(S(=O)(=O)N[C@H]3CC[C@H](O)CC3)c2)nc1C(=O)c1cccnc1 [(v), reference compound]",150

# Same assay, conditions: Assay J PI3Kδ IC50
row,Structure (SMILES),IC50 [nM]
1,"Cc1cc(-c2cc(-c3cc(S(=O)(=O)NCC4(O)CCC4)ccc3C)cnc2N)on1 [Example 37.35, 3-(6-Amino-5-(3-methylisoxazol-5-yl)pyridin-3-yl)-N-((1-hydroxycyclobutyl)methyl)-4-methylbenzenesulfonamide]",1420
2,"Cc1cc(-c2cc(-c3cc(S(=O)(=O)NC[C@@H]4CCCO4)ccc3C)cnc2N)on1 [Example 40, (S)-3-(6-Amino-5-(3-methylisoxazol-5-yl)pyridin-3-yl)-4-methyl-N-((tetrahydrofuran-2-yl)methyl)benzenesulfonamide]",71
3,"Cc1noc(-c2cc(-c3cc(S(=O)(=O)NOC(C)(C)C)ccc3C)cnc2N)n1 [Example 47, 3-(6-Amino-5-(3-methyl-1,2,4-oxadiazol-5-yl)pyridin-3-yl)-N-(tert-butoxy)-4-methylbenzenesulfonamide]",370
4,"Cc1cc(-c2cc(-c3cc(S(=O)(=O)NCC4(CO)CCCCC4)ccc3C)cnc2N)on1 [Example 37.3, 3-(6-Amino-5-(3-methylisoxazol-5-yl)pyridin-3-yl)-N-((1-(hydroxymethyl)cyclohexyl)methyl)-4-methylbenzenesulfonamide]",1230
5,"Cc1cc(-c2cc(-c3cc(S(=O)(=O)NCCO)ccc3C)cnc2N)on1 [Example 73, 3-(6-Amino-5-(3-methylisoxazol-5-yl)pyridin-3-yl)-N-(2-hydroxyethyl)-4-methylbenzenesulfonamide]",1190
